The entries are a selection whose mix differs from that of the whole data set. Some salts or complexes appear as unconnected parts, following the source record. Activity calls are given as the source filed them. Rule as the data show it: active = inhibition above about 26%; inactive = the rest.

The test system of the assay is Nicotinate-nucleotide adenylyltransferase NadD (Staphylococcus aureus N315). The assay is described as follows: inhibitors of S. aureus NadD, primary screen, biochemical, colorimetric, uHTS (AID 602399). Conditions: purified NadD enzyme, colorimetric absorbance read-out; at 20 µM; active compounds read high.
By inhibition is commonly meant the drop in the measured response relative to a control, in per cent. In the case of `CN(Cc1cccnc1)C(=O)COc1ccc(Cl)c(Cl)c1.O=[N+]([O-])c1cc([N+](=O)[O-])c(O)c([N+](=O)[O-])c1`, the inhibition is inactive: 1.06%.

As for `CCOP(C)(=S)SCC(=O)NC(C)C(=O)O` (stereo not given), the inhibition was inactive: -5.56%.

As to `CCOC(=O)c1ccc(NP(C)(=O)Oc2ccc(OC)cc2)cc1` (stereo not given), the inhibition was inactive: -2.93%.

Turning to `O=[N+]([O-])c1cc([N+](=O)[O-])c(O)c([N+](=O)[O-])c1.c1ccc(Oc2ccncc2)cc1`, the inhibition was inactive: 2.03%.

With `CP(=O)(Nc1ccccn1)Oc1ccc(Cl)cc1` (stereo not given), the inhibition is inactive: -4.2%.

Turning to `Cc1ccc(Nc2c([N+](=O)[O-])cc([N+](=O)[O-])cc2[N+](=O)[O-])cc1`, the inhibition was inactive: -9.42%.

Consider `Cc1cccc(C)c1OP(C)(=O)Nc1ccc(SC(F)(F)F)cc1` (stereo not given), for which the inhibition is inactive: -2.4%.

Turning to `CP(=O)(Nc1ccc(SC(F)(F)F)cc1)Oc1ccc(Cl)cc1` (stereo not given), the inhibition was inactive: -5.88%.

With `CP(=O)(Oc1ccccc1)OC(c1ccccc1)C(F)(F)F` (stereo not given), the inhibition was inactive: -3.99%.

Turning to `CCc1ccc(OP(C)(=O)N2CCN(c3ccc([N+](=O)[O-])cc3)CC2)cc1` (stereo not given), the inhibition is inactive: -10.5%.

Regarding `CP(=O)(NC(=O)Nc1ccccc1)Oc1ccccc1` (stereo not given), the inhibition is inactive: -1.51%.

As to `Cc1cc(C)cc(OP(C)(=O)Nc2ccc(SC(F)(F)F)cc2)c1` (stereo not given), the inhibition is inactive: -3.64%.

Turning to `CP(=S)(Nn1cnnc1)Oc1ccccc1` (stereo not given), the inhibition is inactive: 1.04%.

For the compound `COc1ccccc1OP(C)(=O)Nc1ccccc1` (stereo not given), the inhibition was inactive: 8.75%.

As to `CP(=O)(Nc1ccccc1Br)Oc1ccccc1` (stereo not given), the inhibition was inactive: -3.31%.

As for `CCOC(=O)c1ccc(NP(C)(=O)Oc2ccccc2)cc1` (stereo not given), the inhibition was inactive: -5.15%.

With `COc1ccccc1OP(C)(=O)Nc1ccc(C)cc1` (stereo not given), the inhibition is inactive: 2.35%.

On to `Cc1ccc(NP(C)(=O)Oc2ccccc2)c(C)c1` (stereo not given), for which the inhibition was inactive: -0.792%.

For the compound `COc1ccccc1OP(C)(=O)Nc1cc(Cl)ccc1C` (stereo not given), the inhibition was inactive: 0%.

`COc1ccc(OP(C)(=O)Nc2cccc(F)c2)cc1` (stereo not given): the inhibition was inactive: -1.52%.

With `Cc1cc(C)cc(OP(C)(N)=O)c1` (stereo not given), the inhibition is inactive: -2.93%.

On to `O=[N+]([O-])c1cc([N+](=O)[O-])c(Nc2cccnc2)c([N+](=O)[O-])c1`, for which the inhibition was inactive: 1.73%.

In the case of `CC(C)(C)c1ccc(OP(C)(=O)Nc2ccc(SC(F)(F)F)cc2)cc1` (stereo not given), the inhibition was inactive: -3.62%.

As for `Cc1cccc(C)c1OP(C)(N)=O` (stereo not given), the inhibition was inactive: 2.24%.

As to `O=[N+]([O-])c1ccc2c(c1)C=Nc1ccccc1O2`, the inhibition was inactive: 3.63%.

`COc1ccccc1-c1ccccn1.O=[N+]([O-])c1cc([N+](=O)[O-])c(O)c([N+](=O)[O-])c1`: the inhibition was inactive: 10.6%.

On to `CCN(CC)CCCOC(=O)C(O)(c1ccccc1)c1ccccc1`, for which the inhibition was inactive: -6.78%.

Take `O=[N+]([O-])c1cc([N+](=O)[O-])c(Nc2ccccn2)c([N+](=O)[O-])c1`: the inhibition was inactive: 1.75%.

Regarding `Cc1c(NP(C)(=O)Oc2ccc(C(C)C)cc2)c(=O)n(-c2ccccc2)n1C` (stereo not given), the inhibition was inactive: -3.13%.

As for `CCc1ccc(OP(C)(=O)O)cc1`, the inhibition was inactive: 1.06%.

`CP(=O)(Nc1ccccn1)Oc1ccccc1` (stereo not given): the inhibition is inactive: 2.28%.

For the compound `COc1ccccc1OP(C)(=O)Nc1ccc(C)cc1C` (stereo not given), the inhibition was inactive: 5.63%.

In the case of `COc1ccccc1OP(C)(=O)Nc1ccc(Br)cc1` (stereo not given), the inhibition is inactive: -6.37%.

As for `CN(C)CCOC(=O)C(O)(c1ccccc1)C1CCCC1` (stereo not given), the inhibition was inactive: -2.47%.

As to `COc1ccc(OP(C)(=O)Nc2ccccn2)cc1` (stereo not given), the inhibition was inactive: -1.16%.

Regarding `CP(=O)(OCCOc1ccccc1)OCCOc1ccccc1`, the inhibition is inactive: -8.29%.

In the case of `CP(=O)(Nc1ccc(Cl)cc1Cl)Oc1ccccc1` (stereo not given), the inhibition is inactive: -5.13%.

As to `CCCCCCCCCCCCCCCC1C[N+](C)(C)CCOP(C)(=O)O1` (stereo not given), the inhibition was inactive: 6.02%.

As to `O=C1C(O)=C([N+](=O)[O-])C(=O)C(O)=C1[N+](=O)[O-]`, the inhibition was inactive: 3.28%.

For `Cc1cc(C)cc(OP(C)(=O)Nc2cccc(C(F)(F)F)c2)c1` (stereo not given), the inhibition is inactive: -3.91%.

In the case of `COc1ccc(OP(C)(=O)Nc2ccccc2Br)cc1` (stereo not given), the inhibition was inactive: -0.622%.

Regarding `COc1ccccc1OP(C)(=O)Nc1ccc(C)c(C)c1` (stereo not given), the inhibition was inactive: 5.13%.

As for `CP(=O)(OC12CC3CC(CC(C3)C1)C2)OC12CC3CC(CC(C3)C1)C2`, the inhibition is inactive: -1.42%.

With `CCOC(=O)c1ccc(NP(C)(=O)Oc2ccc(Cl)cc2)cc1` (stereo not given), the inhibition is inactive: -5.49%.

Regarding `CP(=O)(Nc1ccc(Cl)cc1)Oc1ccc(F)cc1` (stereo not given), the inhibition was inactive: 3.19%.

With `CC(C)(C)c1ccc(OP(C)(=O)O)cc1`, the inhibition is inactive: 3.79%.

`COc1ccccc1OP(C)(=O)Nc1ccccc1Br` (stereo not given): the inhibition was inactive: -1.22%.

As to `CN(C)C(=O)c1c([N+](=O)[O-])cc([N+](=O)[O-])cc1[N+](=O)[O-]`, the inhibition was inactive: 8.57%.

`CCN(CC)CC(O)COC(=O)C(O)(c1ccccc1)C1CCCCC1` (stereo not given): the inhibition is inactive: -1.03%.

`COc1ccc(OP(C)(=O)Nc2ccc(Br)cc2)cc1` (stereo not given): the inhibition is inactive: -0.896%.

Regarding `CP(=O)(Oc1ccccc1)N1CCOC1=O` (stereo not given), the inhibition is inactive: 2.61%.

In the case of `CCc1ccc(OP(C)(=O)Nc2cccnc2)cc1` (stereo not given), the inhibition is inactive: 1.69%.

Regarding `COc1ccccc1OP(C)(=O)Nc1c(C)n(C)n(-c2ccccc2)c1=O` (stereo not given), the inhibition is inactive: -0.792%.

Consider `O=C(OCCCN1CCCC1)C(O)(c1ccccc1)C1CCCCC1` (stereo not given), for which the inhibition is inactive: -8.29%.

Consider `CP(=O)(Nc1ccc2c(c1)OCCO2)Oc1ccccc1` (stereo not given), for which the inhibition was inactive: 0.0902%.

Regarding `O=[N+]([O-])c1cc([N+](=O)[O-])c(C(F)(F)F)c([N+](=O)[O-])c1O`, the inhibition is inactive: 1.59%.

For the compound `Cc1ccccc1NP(C)(=O)Nc1ccccc1C`, the inhibition is inactive: 2.04%.

As for `CP(=O)(Nc1ccc(SC(F)(F)F)cc1)Oc1ccc(F)cc1` (stereo not given), the inhibition was inactive: -4.83%.

As to `CCOP(C)(=S)SCC(=O)NC(C)(CC)C(=O)O` (stereo not given), the inhibition was inactive: 1.84%.

With `Cc1cc(-c2cccc3ccccc23)c(C)cn1.O=[N+]([O-])c1cc([N+](=O)[O-])c(O)c([N+](=O)[O-])c1`, the inhibition is inactive: -5.11%.

As to `O=[N+]([O-])c1cc([N+](=O)[O-])c(NCC2CCS(=O)(=O)C2)c([N+](=O)[O-])c1` (stereo not given), the inhibition was inactive: -2.96%.

In the case of `O=[N+]([O-])c1ccc(OP2(=O)COCCO2)cc1` (stereo not given), the inhibition is inactive: -4.83%.

`Cc1c(C(c2ccc3c(c2)OCO3)c2c(C)n(C)n(-c3ccccc3)c2=O)c(=O)n(-c2ccccc2)n1C.O=[N+]([O-])c1cc([N+](=O)[O-])c(O)c([N+](=O)[O-])c1`: the inhibition was inactive: 2.31%.

Turning to `COc1ccc(OP(C)(=O)Nc2cccc(Br)c2)cc1` (stereo not given), the inhibition is inactive: 4.45%.

With `COc1ccc(NP(C)(=O)Oc2ccccc2OC)cc1` (stereo not given), the inhibition is inactive: -3.21%.

As for `CN(C)CCOC(=O)C(O)(c1ccccc1)C1CCCCC1` (stereo not given), the inhibition is inactive: -2.55%.

As for `CCN(CC)CCCOC(=O)C(O)(c1ccccc1)C1CCCCC1` (stereo not given), the inhibition is inactive: -8.72%.

On to `Cc1c([N+](=O)[O-])cc([N+](=O)[O-])c(Br)c1[N+](=O)[O-]`, for which the inhibition is inactive: 3.9%.

Regarding `O=[N+]([O-])c1cc([N+](=O)[O-])c(OC2CCCCC2O)c([N+](=O)[O-])c1` (stereo not given), the inhibition was inactive: -0.443%.

With `CCCCCOc1ccc(NP(C)(=O)Oc2ccc(Cl)cc2Cl)cc1` (stereo not given), the inhibition was inactive: 4.66%.

For the compound `CP(=O)(Nc1ccccc1)Oc1ccc(F)cc1` (stereo not given), the inhibition was inactive: 1.68%.

Consider `CCN(CC)CCCNc1ccccc1[N+](=O)[O-].O=[N+]([O-])c1cc([N+](=O)[O-])c(O)c([N+](=O)[O-])c1`, for which the inhibition is inactive: 7.08%.

In the case of `COc1ccc(OP(C)(=O)Nc2ccc(SC(F)(F)F)cc2)cc1` (stereo not given), the inhibition is inactive: -2.65%.

On to `CCOC(=O)c1ccc(NP(C)(=O)Oc2ccc(F)cc2)cc1` (stereo not given), for which the inhibition was inactive: -4.63%.

For `O=C(OCCN1CCN(CCOCc2ccccc2)CC1)C(O)(c1ccccc1)c1ccccc1`, the inhibition is inactive: -6.06%.

For `O=C(OC1CN2CCC1CC2)c1ccc([N+](=O)[O-])cc1` (stereo not given), the inhibition is inactive: 7.45%.

Turning to `COc1ccc2c(c1O)-c1c(O)c(OC)cc3c1[C@H](C2)[N+](C)(C)CC3.O=[N+]([O-])c1cc([N+](=O)[O-])c([O-])c([N+](=O)[O-])c1[O-]`, the inhibition is inactive: -0.412%.

In the case of `O=[N+]([O-])c1cc([N+](=O)[O-])c(Nc2ccc(Cl)cc2)c([N+](=O)[O-])c1`, the inhibition is inactive: -3.04%.

On to `CC(C)c1ccc(OP(C)(=O)Nc2ccc(SC(F)(F)F)cc2)cc1` (stereo not given), for which the inhibition was inactive: -2.15%.

`CP(=O)(Nc1ccccc1F)Oc1ccccc1` (stereo not given): the inhibition was inactive: 1.47%.
